Pooled drug test results. Numbers come from NIAID ChemDB, via PubChem.

Common to all: whole-cell or culture tests; species: Herpes simplex virus 1

An empty or dashed field is not shown.

SMILES,strain,read by,cell line,endpoint,result
COc1cc2oc(-c3ccccc3)cc(=O)c2c(OC)c1OC,A4-3,plaque count,VERO,EC50,9.4 µg/mL
CO[C@H]1[C@H](O)[C@H](n2cnc3c(N)ncnc32)O[C@@H]1CO,,cytopathic effect,PRK,EC50,>100 µg/mL
CCOc1ccc(-c2onc(N(CC)CC)c2Cc2c(N(CC)CC)noc2-c2ccc(O)cc2O)c(O)c1,ATCC VR733,plaque count,VERO,EC50,>17 µM
NNC(=O)Cc1nc2n(n1)CCCCC2,KOS,,,MIC,>400 µg/mL
Nc1ncnc2c1ncn2C[C@@H](CO)OCP(=O)(O)O,,cytopathic effect,VERO,EC50,22 µM
CCCCCCCCc1cn([C@@H]2O[C@H](COP(=O)(O)O)[C@@H](O)[C@H]2O)c(=O)nc1N,F,,,EC50,>400 µg/mL
Nc1ncnc2c1ncn2[C@@H]1O[C@H](COP(=O)(O)O[C@@H]2[C@H](O)[C@@H](COP(=O)(O)O[C@@H]3[C@H](O)[C@@H](COP(=O)(O)OP(=O)(O)OP(=O)(O)O)O[C@H]3n3cnc4c(N)ncnc43)O[C@H]2n2cnc3c(N)ncnc32)[C@@H](O)[C@H]1O,,cytopathic effect,PRK,EC50,>400 µg/mL
O=c1[nH]c(=O)n([C@@H]2O[C@H](CO)[C@@H](O)[C@@H]2O)cc1/C=C/Br,F,cytopathic effect,PRK,EC50,0.1 µg/mL
Nc1ncnc2c1ncn2[C@@H]1C[C@H](CO)[C@@H](O)[C@@H]1O,Lederle chorioallantoic,cytopathic effect,HEP-2,EC50,9 µg/mL
OC[C@H]1O[C@@H](n2c(=S)[nH]c3cc(Cl)c(Cl)cc32)C[C@@H]1O,,ELISA,HFF,EC50,>100 µM
COc1cc(O)c2c(=O)cc(-c3ccc(OC)c(OC)c3)oc2c1,HF,plaque count,HeLa,EC50,140 µg/mL
CC(C)c1cn([C@@H]2O[C@H](COP(=O)(O)O)[C@@H](O)[C@H]2O)c(=O)nc1N,F,,,EC50,>400 µg/mL
O=C1C2=C(SCCS2)C(=O)N1CCCCN1CCN(c2ccccc2)CC1,,plaque count,VERO 76,EC50,>100 µM
CN[C@H]1C[C@@H](n2cnc3c(N)ncnc32)[C@H](O)[C@@H]1O,,,HFF,EC50,>100 µg/mL
Cc1nc(N(C)C(=O)Cc2ccc(-c3ccccn3)cc2)sc1S(N)(=O)=O,KT1,plaque count,VERO,EC50,0.03 µM
COc1ccc2[nH]c3c(c2c1)CCN1OCSCC(N)[C@@H]31,B2006 (TK-),cytopathic effect,PRK,EC50,0.04 µg/mL
Nc1nc2cc(Cl)c(Cl)cc2n1[C@H]1C[C@H](O)[C@@H](CO)O1,,ELISA,HFF,EC50,>100 µM
Nc1ncnc2c1ncn2/C=C1/[C@H](CO)C1(F)F,,,BSC-1,EC50,>100 µM
[N-]=[N+]=N[C@@H]1[C@H](O)[C@@H](CO)C[C@H]1n1ccc(N)nc1=O,,plaque count,VERO,EC50,>400 µM
CN(C)c1cc(-c2ccc(O)cc2O)on1,ATCC VR733,plaque count,VERO,EC50,>227 µM
O=C(NCCc1ccccc1)C1=Cc2ccncc2CC1,McKrae,plaque count,HFF,EC50,54.4 µM
Nc1nc2c(ncn2CCC(CO)CO)c(=O)[nH]1,KOS,plaque count,BALB/3T3,EC50,0.037 µg/mL
COc1ccc(-n2c(Cc3nc4n(n3)CCCC4)n[nH]c2=S)cc1,TK (KOS ACV),,,MIC,80 µg/mL
CCN(CC)c1cc(-c2ccc(OC)cc2OC)on1,ATCC VR733,plaque count,VERO,EC50,>362 µM
Nc1nc(F)nc2c1ncn2[C@@H]1C=C(CO)[C@@H](O)[C@H]1O,KOS,cytopathic effect,E6SM,EC50,≥40 µg/mL
O=c1[nH]c(=O)n([C@@H]2O[C@H](COP(=O)(O)O)[C@@H](O)[C@@H]2O)cc1/C=C/Br,CHR-3,plaque count,HELF,EC50,0.011 µg/mL
Clc1ncnc2nc(-c3cscn3)[nH]c12,,plaque count,VERO,EC50,>100 µg/mL
COC[C@H]1O[C@@H](n2cnc3c(N)ncnc32)[C@H](O)[C@@H]1O,,cytopathic effect,PRK,EC50,>100 µg/mL
CSc1nc2cc(Cl)c(Cl)cc2n1[C@H]1C[C@H](O)[C@@H](CO)O1,,ELISA,HFF,EC50,>100 µM
Nc1nc2c(ncn2/C=C2/[C@H](CO)C2(F)F)c(=O)[nH]1,,,BSC-1,EC50,>100 µM
COc1ccc(-c2cc(N3CCCCC3)no2)c(O)c1,ATCC VR733,plaque count,VERO,EC50,>364 µM
Cc1cn([C@@H]2O[C@H](CO)[C@@H](O)[C@@H]2F)c(=O)[nH]c1=O,VR-3,plaque count,HELF,EC50,0.005 µg/mL
CC(=O)O[C@]1(C)/C=C/C[C@@H](C)/C=C/[C@@]2(C)CC[C@@H](C(C)(C)O)[C@@H]2[C@@H](O)C1,,cytopathic effect,VERO,EC50,<15 µM
Cc1cc2nc(Cl)n([C@H]3C[C@H](O)[C@@H](CO)O3)c2cc1C,,ELISA,HFF,EC50,>100 µM
CCc1nc(CC(=O)NN=C(C)C)nn1CC,KOS,,,MIC,>400 µg/mL
O=c1[nH]c(=O)n([C@H]2C[C@H](O)[C@@H](CO)O2)cc1I,,cytopathic effect,E6SM,EC50,0.2 µg/mL
Cc1nc(Cc2n[nH]c(=S)n2-c2ccccc2)nn1C,TK (KOS ACV),,,MIC,80 µg/mL
CCCCCCCCCCCCCCCCOCCCOP(=O)(O)CO[C@H](CO)Cn1cnc2c(N)ncnc21,,hybridisation,MRC-5,EC90,0.0004 µM
Nc1nc(=O)n([C@@H]2O[C@H](CO)[C@@H](O)[C@@H]2F)cc1I,VR-3,plaque count,HELF,EC50,0.013 µg/mL
O=c1[nH]c(=O)n([C@H]2C[C@H](O)[C@@H](COP(=O)([O-])OP(=O)([O-])OC[C@@H]3OC(O)[C@H](O)[C@H](O)[C@H]3O)O2)cc1I,KOS,cytopathic effect,E6SM,EC50,0.4 µg/mL
COc1ccc(-c2cc(=O)c3c(O)cc(O)cc3o2)cc1,HF,plaque count,HeLa,EC50,3.2 µg/mL
CCCCc1cn([C@@H]2OC3COP(=O)(O)OC3[C@H]2O)c(=O)nc1N,McIntyre,,,EC50,>400 µg/mL
CO[C@H](CO)[C@@H](O)CCn1cnc2c(=O)[nH]c(N)nc21,F,cytopathic effect,E6SM,EC50,>400 µg/mL
CCCCc1cn([C@@H]2O[C@H](COP(=O)(O)O)[C@@H](O)[C@H]2O)c(=O)nc1N,KOS,,,EC50,>400 µg/mL
O=c1[nH]c(=O)n([C@H]2C[C@H](O)[C@@H](COP(=O)(O)O)O2)cc1I,KOS,cytopathic effect,E6SM,EC50,0.2 µg/mL
NC1CSCCN2CCc3c([nH]c4ccccc34)[C@H]12,B2006 (TK-),cytopathic effect,E6SM,EC50,0.04 µg/mL
Cc1cn([C@@H]2OC3COP(=O)(O)OC3[C@H]2O)c(=O)nc1N,F,,,EC50,>400 µg/mL
CC(Sc1ncnc2c1cnn2COCCO)C(N)=O,KOS,cytopathic effect,E6SM,EC50,>400 µg/mL
CO[C@H](CO)[C@@H](O)CCn1cnc2c(N)ncnc21,McIntyre,cytopathic effect,E6SM,EC50,>400 µg/mL
CCN(CC)c1noc(-c2ccc(O)cc2O)c1Cc1c(N(CC)CC)noc1-c1ccc(OC)cc1O,ATCC VR733,plaque count,VERO,EC50,>3.5 µM
CCC(Sc1ncnc2c1cnn2COCC(O)CO)C(N)=O,VWM1837 (TK-),cytopathic effect,E6SM,EC50,>400 µg/mL
CCn1nc(CC(=O)N/N=C/c2ccco2)nc1C,KOS,,,MIC,>400 µg/mL
Nc1ncnc2c1ncn2CC[C@H](O)CCO,VMW1837 (TK-),cytopathic effect,E6SM,EC50,>400 µg/mL
NC1CSCON2CCc3c([nH]c4ccccc34)[C@H]12,B2006 (TK-),cytopathic effect,PRK,EC50,0.7 µg/mL
O=c1[nH]c(=O)n([C@@H]2O[C@H](CO)[C@@H](O)[C@@H]2O)cc1/C=C/Cl,CHR-3,plaque count,HELF,EC50,0.017 µg/mL
NC(=O)CSc1ncnc2c1cnn2COCCO,VWM1837 (TK-),cytopathic effect,E6SM,EC50,>400 µg/mL
Nc1ccn(C[C@@H](CO)OCP(=O)(O)O)c(=O)n1,KOS,plaque count,HEL,EC50,1.2 µM
CC(C)CS[C@@H]1C=C[C@H](n2cnc3c(N)ncnc32)C1,KOS,cytopathic effect,E6SM,EC50,>16 µg/mL
COc1ccc(-c2cc(N(C)C)no2)c(O)c1,ATCC VR733,plaque count,VERO,EC50,>427 µM
Cc1nc(CC(=O)NN)nn1C,TK (KOS ACV),,,MIC,>400 µg/mL
CO[C@H](CO)[C@@H](O)CCn1cc(C)c(=O)[nH]c1=O,McIntyre,cytopathic effect,E6SM,EC50,>400 µg/mL
COCc1cn([C@H]2C[C@H](O)[C@@H](CO)O2)c(=O)nc1N,KOS,plaque count,VERO,EC50,26 µM
CCn1nc(-c2ccc(Cn3ccc4ccccc43)cc2)nc1C,KOS,,,MIC,80 µg/mL

Again, the opening 5 rows:

SMILES | strain | read by | cell line | endpoint | result
COc1cc2oc(-c3ccccc3)cc(=O)c2c(OC)c1OC | A4-3 | plaque count | VERO | EC50 | 9.4 µg/mL
CO[C@H]1[C@H](O)[C@H](n2cnc3c(N)ncnc32)O[C@@H]1CO |  | cytopathic effect | PRK | EC50 | >100 µg/mL
CCOc1ccc(-c2onc(N(CC)CC)c2Cc2c(N(CC)CC)noc2-c2ccc(O)cc2O)c(O)c1 | ATCC VR733 | plaque count | VERO | EC50 | >17 µM
NNC(=O)Cc1nc2n(n1)CCCCC2 | KOS |  |  | MIC | >400 µg/mL
Nc1ncnc2c1ncn2C[C@@H](CO)OCP(=O)(O)O |  | cytopathic effect | VERO | EC50 | 22 µM

ECn is the concentration giving n% inhibition of infection, replication or growth. Neighbouring rows are from separate reports.